This is a selection; strong and weak results do not stand in their true shares. Calls of active or inactive are those of the source. Cut-off read from the data, not from the text of the source: active = z-score mostly below about -2.9 (no sharp cut-off); inactive = mostly above about -1.9.

The assay concerns CapD gamma-glutamyltranspeptidase (Bacillus anthracis Ames Ancestor). In words: inhibition of CapD gamma-glutamyltranspeptidase – biochemical, fluorescence intensity, primary screen (AID 492967). Particulars: purified CapD enzyme, fluorescence intensity read-out; stronger effect = lower value.
For `CCc1nc2c(n1)c1c(non1O)c1c2no[n+]1[O-]`, the z-score was inactive: -3.63.
In the case of `CP(=O)(Nc1ccc(Cl)cc1)Oc1ccc(F)cc1` (centres undefined), the z-score was inactive: -0.255.
Under `CCOP(OCC)N1CCOCC1` stands inactive: -0.15.
Under `O=CC1c2cc([N+](=O)[O-])cc([N+](=O)[O-])c2-c2c1cc([N+](=O)[O-])cc2[N+](=O)[O-]` stands inactive: -0.35.
Under `Cc1[nH]c2c(N(C(=O)c3cc(Cl)nc(Cl)c3)C3CCN(Cc4ccccc4)CC3)cccc2c1C` stands inactive: -0.635; under `CC(=O)OC=C1c2cc([N+](=O)[O-])cc([N+](=O)[O-])c2-c2c1cc([N+](=O)[O-])cc2[N+](=O)[O-]`, inactive: -0.165.
In the case of `CP(=O)(Nc1ccccn1)Oc1ccccc1` (centres undefined), the z-score was inactive: -0.015.
Under `Nc1cc(N)c2nonc2c1[N+](=O)[O-]` stands inactive: -1.33.
With `CCOP(=Nc1nc2ccccc2n2nnnc12)(OCC)OCC` the figure was inactive: -0.44; with `N#Cc1cc([N+](=O)[O-])cc2c1-c1c(cc([N+](=O)[O-])cc1[N+](=O)[O-])C2=O`, inactive: -0.925.
Consider `CC(=O)N1CCc2ccc(N(C(=O)c3cccs3)C3CCN(Cc4ccccc4)CC3)cc21`, for which the z-score was inactive: 0.45.
On to `CN(C)c1cc2c(c([N+](=O)[O-])c1)-c1c(cc([N+](=O)[O-])cc1[N+](=O)[O-])C2=O`, for which the z-score is inactive: 0.4.
With `COC(=O)N(c1ccccc1)P1(=S)OCC(C)O1` (centres undefined) the figure was inactive: 0.03.
Under `O=C(OC1/C(=C/c2ccccc2F)N2CCC1CC2)c1ccccc1` (centres undefined) stands inactive: 0.18.
Under `CN(C)C(=O)Oc1noc2ccccc12` stands inactive: -0.38; under `Cc1[nH]c2c(N(C(=O)Nc3ccccc3)C3CCN(Cc4ccccc4)CC3)cccc2c1C`, inactive: -0.295; under `O=C(OC1CN2CCC1CC2)c1ccccc1` (centres undefined), inactive: 0.31.
For `COc1cc2c(cc1NP(C)(=O)Oc1ccccc1)oc1ccccc12` (centres undefined), the z-score is inactive: -0.375.
Under `O=P1(Nc2nc3ccc(Cl)cc3s2)COc2ccccc2O1` (centres undefined) stands inactive: -1.17; under `O=C(OCCN1CCN(CCOCc2ccccc2)CC1)C(O)(c1ccccc1)c1ccccc1`, inactive: 0.415.
With `O=[N+]([O-])c1cc([N+](=O)[O-])c(Sc2nc3ccccc3s2)c([N+](=O)[O-])c1` the figure was inactive: -3.38; with `CC(=O)OC1CN2CCC1C(c1ccccc1)C2` (centres undefined), inactive: 0.7.
With `Cc1ccc(NP(=O)(/N=c2\nc(-c3ccccc3)n(-c3ccccc3)s2)Nc2ccc(C)cc2)cc1` the figure was inactive: -0.425; with `O=[N+]([O-])c1cc2c(c([N+](=O)[O-])c1)-c1c(cc([N+](=O)[O-])cc1[N+](=O)[O-])C2=NO`, inactive: 0.2; with `C/C1=C2N=C(/C=C3N=C(/C(C)=C4\[N-][C@@](C)([C@@H]5N=C1[C@](C)(CCC(=O)NC[C@@H](C)OP(=O)([O-])O[C@H]1[C@@H](O)[C@@H](n6cnc7cc(C)c(C)cc76)O[C@@H]1CO)[C@H]5CC(N)=O)[C@@](C)(CC(N)=O)[C@@H]4CCC(N)=O)[C@@](C)(CC(N)=O)[C@@H]\3CCC(N)=O)C(C)(C)[C@@H]/2CCC(N)=O.[C-]#N.[Co+3]`, inactive: 1.47.
Consider `Cc1ccccc1NP(C)(=O)Nc1ccccc1C`, for which the z-score is inactive: -0.225.
Under `CC(=O)N1CCc2cc(N(C(=O)c3cccs3)C3CCN(Cc4ccccc4)CC3)ccc21` stands inactive: 0.45.
Under `Nc1nonc1OCc1nonc1COc1nonc1N` stands inactive: 0.06; under `CC(=O)OC1(C#N)CN2CCC1CC2` (centres undefined), inactive: 0.04.
Under `C=CCN1CCN(CCOC(=O)C(O)(c2ccccc2)c2ccccc2)CC1` stands inactive: 0.165; under `CCNC(=O)N(c1ccc2c(c1)N(C(C)=O)CC2)C1CCN(Cc2ccccc2)CC1`, inactive: 0.13.
Consider `CCNC(=O)N(c1ccc2[nH]c(C(C)(C)CC)cc2c1)C1CCN(Cc2ccccc2)CC1`, for which the z-score was inactive: -0.335.
With `Cc1ccc(C(=O)OC2CN3CCC2CC3)cc1` (centres undefined) the figure was inactive: -0.03; with `CC1(C)COP(=S)(N(C2=NCCC2)c2ccccc2)OC1`, inactive: -0.04; with `O=C(OC1/C(=C/c2ccccc2F)N2CCC1CC2)c1ccc([N+](=O)[O-])cc1` (centres undefined), inactive: -0.58.
Under `Cc1cc(C)cc(OP(C)(=O)Nc2ccc(OC(C)C)cc2)c1` (centres undefined) stands inactive: 0.01; under `Nc1nonc1-c1no[n+]([O-])c1-c1nonc1N`, inactive: -1.75.
Under `O=P1(Nc2ccccn2)COc2ccccc2OC1` stands inactive: -0.035; under `Cc1cccc(OCC(=O)OC2CN3CCC2CC3)c1` (centres undefined), inactive: 22.7.
As for `COc1cc(-n2cnnn2)ccc1-n1cnnn1`, the z-score was inactive: -0.005.
Under `O=C(OC1CN2CCC1CC2)c1ccc(Cl)cc1` (centres undefined) stands inactive: 0.225.
For the compound `CC1(C)Nc2ccccc2OP1(=O)c1ccccc1` (centres undefined), the z-score was inactive: 0.09.
Under `CCNC(=O)N(c1ccc2c(c1)CCN2S(C)(=O)=O)C1CCN(Cc2ccccc2)CC1` stands inactive: -0.785.
With `NC(=O)Nc1ccc([As](=O)(O)O)cc1` the figure was inactive: 0.53.
With `O=P1(Nc2nc3ccc(Cl)cc3s2)COc2ccccc2OC1` the figure was inactive: -0.075.
Turning to `O=[N+]([O-])c1ccc(NN=C2c3cc([N+](=O)[O-])cc([N+](=O)[O-])c3-c3c2cc([N+](=O)[O-])cc3[N+](=O)[O-])cc1`, the z-score is inactive: -0.265.
Regarding `CC1=Nc2ccc(C(F)(F)F)cc2C1(C)C`, the z-score is inactive: 3.88.
As for `O=C(O)C1(O)c2ccccc2-c2ccccc21`, the z-score is inactive: 0.52.
Under `Cc1cc(C)cc(OP(C)(=O)NCc2ccccc2)c1` (centres undefined) stands inactive: -0.35; under `Nc1nonc1OCCOc1nonc1N`, inactive: -0.115.
With `CN(C)P1(=O)Nc2ccccc2S1` (centres undefined) the figure was inactive: -1.6; with `COP(=O)(OC)C(NC(=O)c1ccc(C)cc1)=C(Cl)Cl`, inactive: 0.07.
With `O=C(OC1CN2CCC1CC2)C12CC3CC(CC(C3)C1)C2` (centres undefined) the figure was inactive: 0.255.
Turning to `CCn1cccc/c1=N\P1(=S)OCCO1`, the z-score was inactive: 4.54.
With `CCCOC=C1c2cc([N+](=O)[O-])cc([N+](=O)[O-])c2-c2c1cc([N+](=O)[O-])cc2[N+](=O)[O-]` the figure was inactive: 5.78; with `O=C(OC1/C(=C/c2ccccc2F)N2CCC1CC2)c1c(F)cccc1F` (centres undefined), inactive: -0.35; with `O=C(O)CCC(=O)N=S(c1ccccc1)c1ccccc1.O=[N+]([O-])c1cc([N+](=O)[O-])c(O)c([N+](=O)[O-])c1`, inactive: -1.98.
Under `Cc1nn2c(c1[N+](=O)[O-])n1nc(C)c([N+](=O)[O-])c1n1nc(C)c([N+](=O)[O-])c21` stands inactive: -1.44; under `CP(=O)(Nc1ccc(Cl)cc1)Oc1ccccc1` (centres undefined), inactive: -0.16.

The values are drawn from PubChem BioAssay AID492967 (ICCB-Longwood Screening Facility, Harvard Medical School, 2010).
